Anti-infective test results gathered from many reports (values: NIAID ChemDB through PubChem).

Common to all: growth or infection tests; agent: Herpes simplex virus 1; method: plaque count; measure: EC50

ECn: concentration that inhibits the pathogen or its effect by n%. Blank or dashed fields: not listed here. Rows are shuffled and stem from different studies.

| smiles | cells | strain | value |
|---|---|---|---|
| Cn1cc(C(=O)NCc2ccc(Cl)cc2)c(=O)c2cc(CN3CCOCC3)ccc21 | HFF | DM2.1 (ACV-resistant) | 1.9 µM |
| Cc1cn(CC2(CO)CC2CO)c(=O)[nH]c1=O | VERO | - | >500 µg/mL |
| O=c1[nH]c(=O)n([C@@H]2O[C@H](COP(=O)(O)O)[C@@H](O)[C@@H]2O)cc1/C=C/Br | HELF | CHR-3 | 0.011 µg/mL |
| [N-]=[N+]=Nc1c(-c2ccccc2)c(-c2ccccc2)n(COCCO)c1-c1ccccc1 | VERO | - | >65 µM |
| COC(=O)[C@]1(C)CCC[C@]2(C)c3cc(Br)c4nc(C)[nH]c4c3CCC12 | E6SM | - | >4 µg/mL |
| CCc1cn([C@H]2C[C@H](O)[C@@H](CO)O2)c(=O)[nH]c1=O | HELF | 42-78 | 180 µM |
| Cn1cc(C(=O)NCc2ccc(Cl)cc2)c(=O)c2cc(/C=C\CO)cc(F)c21 | VERO | F-M1 | >20 µM |
| O=c1[nH]c(=O)n(C[C@]2(CO)C[C@H]2CO)cc1/C=C/Br | MRC-5 | Tomioka | 0.0093 µg/mL |
| O=c1[nH]c(=O)n([C@H]2C[C@H](O)[C@@H](CO)O2)cc1/C=C/Br | VERO | H129 | 0.15 µg/mL |
| Cc1cc([C@@H](O)[C@@H](O)CO)co1 | VERO | MFPT-resistant-2 | 147 µM |
| Nc1nc2c(ncn2CC[C@@H](O)CO)c(=O)[nH]1 | VERO | C915 TK- | 420 µM |
| Cc1cn([C@@H]2O[C@H](CO[Si](C)(C)C(C)(C)C)C3(O[C@H]3C(N)=O)[C@H]2O[Si](C)(C)C(C)(C)C)c(=O)[nH]c1=O | VERO | - | >2.7 µM |
| Nc1nc2c(ncn2COC(CO)CO)c(=O)[nH]1 | VERO | H129 | 0.16 µg/mL |
| Nc1nc2c(ncn2CCC(O)CO)c(=O)[nH]1 | VERO | 7935-72 | 4 µM |
| O=c1[nH]c(=O)n([C@H]2C[C@H](O)[C@@H](CO)O2)cc1I | HELF | CHR-3 | 0.4 µg/mL |
| Nc1ncnc2c1ncn2[C@@H]1C[C@H](CO)[C@@H](O)[C@@H]1O | VERO | F-FIAU-C1 | 34 µM |
| CCCCCCCCCCCCOC(=O)c1cc(O)c(O)c(O)c1 | CV-1 | HF | >10 µg/mL |
| CC(C)(C)[Si](C)(C)OC[C@H]1O[C@@H](n2ccc(=O)[nH]c2=O)[C@H](O[Si](C)(C)C(C)(C)C)C1(O)[C@H](N=[N+]=[N-])C(N)=O | VERO | - | >3.6 µM |
| CC(C)(C)NC(=O)CN(C(=O)[C@H]1CC[C@@]2(C)C3CC=C4C[C@@H](O)CC[C@]4(C)C3CC[C@]12C)c1ccccc1Cl | Vero cells | B2006 | 12.8 µM |
| O=C(OC[C@H]1O[C@@H](OC(=O)c2cc(O)c(O)c(O)c2)[C@H](O)[C@@H](OC(=O)c2cc(O)c(O)c(O)c2)[C@@H]1O)c1cc(O)c(O)c(O)c1 | VERO | HF | 0.086 µg/mL |
| Cc1cn([C@@H]2O[C@H](CO)[C@@H](O)[C@@H]2F)c(=O)[nH]c1=O | VERO | F | 0.3 µM |
| O=C(OC1OC2COC(=O)c3cc(O)c(O)c(O)c3-c3c(cc(O)c(O)c3O)C(=O)OC2C(OC(=O)c2cc(O)c(O)c(O)c2)C1OC(=O)c1cc(O)c(O)c(O)c1)c1cc(O)c(O)c(Oc2c(C(=O)OC3OC4COC(=O)c5cc(O)c(O)c(O)c5-c5c(cc(O)c(O)c5O)C(=O)OC4C(OC(=O)c4cc(O)c(O)c(O)c4)C3OC(=O)c3cc(O)c(O)c(O)c3)cc(O)c(O)c2O)c1 | CV-1 | HF | 0.038 µg/mL |
| O=C(NCc1ccc(Cl)cc1)c1cn2c3c(cc(CN4CCOCC4)cc3c1=O)OC(c1cccnc1)C2 | HFF | E-377 | 11.3 µM |
| Nc1nc2c(ncn2COCCO)c(=O)[nH]1 | VERO | KOS | 3.9 µM |
| O=C(NCc1ccc(Cl)cc1)c1c[nH]c2c(F)cc(CCCO)cc2c1=O | - | - | 4.5 µM |
| Cn1cc(C(=O)NCc2ccc(Cl)cc2)c(=O)c2cc(CN3CCOCC3)ccc21 | VERO | - | 3.5 µM |
| O=c1[nH]c(=O)n([C@H]2C[C@H](O)[C@@H](CO)O2)cc1/C=C/Br | HELF | V3 | 0.05 µM |
| Nc1ncnc2c1ncn2[C@@H]1O[C@H](CO)[C@@H](O)[C@@H]1O | RK-13 | MMUDR-resistant | 19 µM |
| Cc1cn([C@@H]2O[C@H](CO)[C@@H](O)[C@@H]2O)c(=O)[nH]c1=O | HELF | VR-3 | 0.12 µg/mL |
| CCOC(=O)c1c(Cl)c(-c2ccccc2)n(COCCOC(C)=O)c1C | VERO | - | >200 µM |
| Nc1ccn([C@H]2O[C@@H](CO)[C@H](O)[C@H]2F)c(=O)n1 | VERO | F-FAU-C2 | 8.1 µM |
| O=Cc1cn([C@@H]2O[C@H](CO)[C@@H](O)[C@@H]2O)c(=O)[nH]c1=O | VERO | V3 | >1000 µM |
| COC(=O)[C@]1(C)CCC[C@]2(C)c3cc(Br)c4nc[nH]c4c3CCC12 | E6SM | - | >4 µg/mL |
| Nc1nc2c(ncn2C[C@]2(CO)C[C@H]2CO)c(=O)[nH]1 | HEL | KOS | 0.023 µg/mL |
| O=c1[nH]c(=O)n([C@@H]2O[C@H](CO)[C@@H](O)[C@@H]2O)cc1/C=C/Cl | HELF | VR-3 | 0.018 µg/mL |
| Cc1cn([C@H]2C[C@H](O)[C@]3(CO)C[C@H]23)c(=O)[nH]c1=O | HFF | DM2.1 (TK+) | 6.3 µg/mL |
| O=CC(OC(=O)c1cc(O)c(O)c(O)c1Oc1cc2c(c(O)c1O)-c1c(cc(O)c(O)c1O)C(=O)OC(C(OC(=O)c1cc(O)c(O)c(O)c1)C(C=O)OC(=O)c1cc(O)c(O)c(O)c1)C(O)COC2=O)C(OC(=O)c1cc(O)c(O)c(O)c1)C1OC(=O)c2cc(O)c(O)c(O)c2-c2c(cc(O)c(O)c2O)C(=O)OCC1O | CV-1 | HF | 0.039 µg/mL |
| COC(=O)[C@]1(C)CCC[C@]2(C)c3ccc4[nH]c(C(F)(F)F)nc4c3CCC12 | E6SM | - | >4 µg/mL |
| O=C(NCc1ccc(Cl)cc1)c1c[nH]c2ccc(CCCO)cc2c1=O | - | - | 6.7 µM |
| C=Cc1cn([C@@H]2O[C@H](CO)[C@@H](O)[C@@H]2O)c(=O)[nH]c1=O | HELF | V3 | 0.37 µM |
| CC(C)(C)[Si](C)(C)OC[C@H]1O[C@@H](n2ccc(=O)[nH]c2=O)[C@H](O[Si](C)(C)C(C)(C)C)[C@@]12O[C@H]2C(=O)NO | VERO | - | 27 µM |
| O=C(O)c1c([N+](=O)[O-])c(-c2ccccc2)n(COCCO)c1-c1ccccc1 | VERO | - | >300 µM |
| O=c1[nH]c(=O)n([C@@H]2O[C@H](CO)[C@@H](O)[C@@H]2F)cc1CO | VERO | F | 0.48 µM |
| Nc1nc2c(ncn2CCC(CO)CO)c(=O)[nH]1 | VERO | KT1 | 2.3 µM |
| Cc1cn([C@@H]2O[C@H](CO)[C@@H](O)[C@@H]2F)c(=O)[nH]c1=O | VERO | F-AMAU-C2 | 11 µM |
| Nc1nc2c(ncn2COC(CO)CO)c(=O)[nH]1 | VERO | F | 0.2 µM |
| CC(=O)OCCOCn1c(-c2ccccc2)c(C#N)c([N+](=O)[O-])c1-c1ccccc1 | VERO | - | >300 µM |
| CC(C)(C)[Si](C)(C)OC[C@H]1O[C@@H](n2ccc(=O)[nH]c2=O)[C@H](O[Si](C)(C)C(C)(C)C)[C@@]12O[C@H]2C(N)=O | VERO | - | >8 µM |
| Cc1cn([C@@H]2O[C@H](CO)[C@H]2CO)c(=O)[nH]c1=O | HFF | 123 | 0.012 µg/mL |
| Nc1nc2c(ncn2COCCO)c(=O)[nH]1 | VERO | TK- | >30 µg/mL |
| CC(C)(C)NC(=O)CN(C(=O)[C@H]1CC[C@@]2(C)C3CC=C4C[C@@H](O)CC[C@]4(C)C3CC[C@]12C)c1ccccc1 | Vero cells | KOS | 20 µM |
| COC(=O)[C@]1(C)CCC[C@]2(C)c3cc(Br)c4[nH]ccc4c3CCC12 | E6SM | - | >4 µg/mL |
| N#Cc1c([N+](=O)[O-])c(-c2ccccc2)n(COCCO)c1-c1ccccc1 | VERO | - | >300 µM |
| Nc1nc2c(ncn2CCCCO)c(=O)[nH]1 | BHK | C42 | 16 µM |
| Nc1nc2c(ncn2COCCO)c(=O)[nH]1 | BALB/3T3 | Tomioka | 0.032 µg/mL |
| Nc1ccn(C[C@@H](CO)OCP(=O)(O)O)c(=O)n1 | MRC-5 | BW-S (TK+) | 8.5 µM |